According to the CheMixHub viscosity set:

Conditions: 101 kPa

| SMILES | viscosity (293.15 K) | viscosity (298.15 K) | viscosity (303.15 K) | viscosity (308.15 K) | viscosity (313.15 K) | viscosity (318.15 K) | viscosity (323.15 K) | viscosity (298 K) | viscosity (303 K) | viscosity (308 K) | viscosity (313 K) | viscosity (318 K) | viscosity (323 K) |
| --- | --- | --- | --- | --- | --- | --- | --- | --- | --- | --- | --- | --- | --- |
| Cn1cc[n+](CCCC#N)c1.O=S(=O)(F)[N-]S(=O)(=O)F | 290.3 ± 17 mPa·s | 215.4 ± 11 mPa·s | 160.2 ± 6.6 mPa·s | 124.6 ± 4.3 mPa·s | 97.57 ± 2.8 mPa·s | 77.72 ± 1.9 mPa·s | 63.27 ± 1.4 mPa·s |  |  |  |  |  |  |
| CCC[N+]1(C)CCCC1.O=S(=O)(F)[N-]S(=O)(=O)F |  |  |  |  |  |  |  | 40.6 ± 1.2 mPa·s | 34.8 ± 1 mPa·s | 30 ± 0.9 mPa·s | 26.1 ± 0.8 mPa·s | 22.9 ± 0.7 mPa·s | 20.2 ± 0.6 mPa·s |

± gives the uncertainty stated by the source.
